Results of unrelated studies side by side (data: NIAID ChemDB).

All rows: whole-cell or culture tests; organism: Hepatitis B virus; cells: HepG2.2.15; endpoint: EC50

Two numbers with a dash give a range or band. ECn: concentration that inhibits the pathogen or its effect by n%. An empty or dashed field is not shown. Lines come from different laboratories, so protocols vary.

C[C@H]1Cc2[nH]nc(-c3cscn3)c2CN1C(=O)Nc1ccc(F)c(C#N)c1 ; read by: PCR ; result: 0.015 µM
COC(=O)C1=C(CN2CCN(c3ncccn3)CC2)NC(c2ncc(F)cc2F)=N[C@H]1c1ccc(F)cc1Cl ; result: 0.03 µM
C[C@@H]1Cn2c(c(C(=O)NC(C)(C)c3ccccc3)n(-c3ccc(-n4cccn4)cc3)c2=O)CN1C(=O)c1ccc(Br)c(Cl)c1 ; read by: PCR ; result: 0.5–5 µM
COC(=O)C1=C(CN2CC3CC[C@H](C2)O3)NC(c2ncc(F)cc2F)=N[C@H]1c1ccc(F)cc1Cl ; result: 0.075 µM
CCOC(=O)C1=C(CN2CC(F)(F)[C@H]3[C@@H]2CCN3C[C@@](C)(F)C(=O)O)NC(c2nc(C)cs2)=N[C@H]1c1cccc(F)c1C ; read by: PCR ; result: 0.0035 µM
COc1ccc(CN2CCCn3c(c4n(c3=O)CCN(C(=O)Nc3ccc(F)c(Cl)c3)C4)C2=O)cc1 ; read by: PCR ; result: <0.1 µM
C/C=C(/C)C(=O)Oc1c(OC)c(OC)cc2c1-c1c(cc(OC)c(OC)c1OC)C[C@H](C)[C@H](C)C2 ; read by: ELISA / antigen ; result: 11.21 µg/mL
CC1=CC(c2ccccc2Cl)N=C(c2ccccn2)N1 ; result: >50 µM
CCOC(=O)C1=C(CN2CC(F)(F)[C@@H]3[C@H]2CON3C[C@@](C)(O)C(=O)O)NC(c2nccs2)=N[C@H]1c1cccc(F)c1C ; read by: PCR ; result: 0.282 µM
COC(=O)C1=C(C)NC(c2ncccc2N)=N[C@H]1c1ccc(F)cc1Cl ; result: >100 µM
CCOC(=O)C1=C(CN2CC(F)(F)[C@@H]3[C@H]2CON3C[C@@H](OC)C(C)(C)C(=O)O)NC(c2nccs2)=N[C@H]1c1ccc(F)c(F)c1F ; read by: PCR ; result: 0.004 µM
COC(=O)C1=C(CN2CCN(C(=O)OC(C)(C)C)CC2)NC(c2ncc(F)cc2F)=N[C@H]1c1ccc(F)cc1Cl ; result: 0.04 µM
C#C[C@@H](NC(=O)C(=O)c1c(C)c(C(=O)Nc2ccc(F)c(C#N)c2)n(C)c1C)C1COC1 ; read by: PCR ; result: 0.001–0.0099 µM
C[C@@H]1Cn2c(c(C(=O)NCc3ccccc3-c3ncccn3)n(-c3ccc(-n4cccn4)cc3)c2=O)CN1C(=O)c1ccc(Br)c(Cl)c1 ; read by: PCR ; result: 0.1–0.5 µM
COC(=O)C1=C(C)NC(c2ncccc2F)=N[C@H]1c1ccc(F)cc1Cl ; result: 0.14 µM
COC(=O)C1=C(CN2CCN(C(=O)OC)CC2)NC(c2ncc(F)cc2F)=NC1c1ccc(F)cc1Br ; result: 0.04 µM
C[C@@H]1c2[nH]nc(-c3ncccn3)c2CN(C(=O)Nc2ccc(F)c(C#N)c2)[C@H]1C ; read by: PCR ; result: 0.007 µM
COC(=O)C1=C(C)NC(c2ncccc2OC)=N[C@H]1c1ccc(F)cc1Cl ; result: >5 µM
C#CC1(NC(=O)C(=O)c2c(Cl)c(C(=O)Nc3ccc(F)c(C#N)c3)n(C)c2C)CC(F)(F)C1 ; read by: PCR ; result: <0.001 µM
Cc1cccnc1-c1ccccc1CNC(=O)c1c2n(c(=O)n1-c1ccc(OC3CC3)cc1)CCN(C(=O)c1ccc(Br)c(Cl)c1)C2 ; read by: PCR ; result: 0.5–5 µM
COC(=O)C1=C(C(OC)OC)NC(c2ccccn2)=NC1c1ccccc1Cl ; result: >100 µM
CCOC(=O)C1=C(CN2CC(F)(F)[C@@H]3[C@H]2CON3CC[C@](C)(O)C(=O)O)NC(c2nccs2)=N[C@H]1c1cccc(F)c1C ; read by: PCR ; result: >0.625 µM
C[C@H](Cn1cnc2c(N)ncnc21)OCP(=O)(O)O ; read by: PCR ; result: 0.53 µg/mL
C[C@@H]1c2[nH]nc(-c3ncccn3)c2CN(C(=O)Nc2ccc(F)c(C#N)c2)[C@@H]1C ; read by: PCR ; result: 0.29 µM
COC(=O)C1=C(C)NC(c2ccccn2)=NC1c1ccccc1C ; result: 15 µM
C#CCNC(=O)C(=O)c1c(F)c(C(=O)Nc2ccc(F)c(C#N)c2)n(C)c1Br ; read by: PCR ; result: 0.01–0.099 µM
COc1ccc(CN2CCn3c(c4n(c3=O)CCN(C(=O)c3ccc(Br)c(Cl)c3)C4)C2=O)cc1 ; read by: PCR ; result: >5 µM
C[C@H](Cn1cnc2c(N)ncnc21)OCP(=O)(O)O ; read by: PCR ; result: 2.54 µM
COC(=O)CN1C(c2ccccn2)=NC(c2ccccc2Cl)C(C(=O)OC)=C1C ; result: >100 µM
C/C=C(/C)C(=O)O[C@@H]1c2cc(OC)c(OC)c(OC)c2-c2c(cc3c(c2OC)OCO3)C[C@H](C)[C@@]1(C)O ; read by: PCR ; result: 12.7 µg/mL
COC(=O)C1=C(CN2CCN(C(=O)Oc3ccccc3)CC2)NC(c2ncccc2F)=N[C@H]1c1ccc(F)cc1Br ; result: 0.04 µM
C#CC1(NC(=O)C(=O)c2c(F)c(C(=O)Nc3ccc(F)c(C#N)c3)n(C)c2C)COC1 ; read by: PCR ; result: <0.001 µM

The last 3 rows once more:

smiles	read by	result
C/C=C(/C)C(=O)O[C@@H]1c2cc(OC)c(OC)c(OC)c2-c2c(cc3c(c2OC)OCO3)C[C@H](C)[C@@]1(C)O	PCR	12.7 µg/mL
COC(=O)C1=C(CN2CCN(C(=O)Oc3ccccc3)CC2)NC(c2ncccc2F)=N[C@H]1c1ccc(F)cc1Br		0.04 µM
C#CC1(NC(=O)C(=O)c2c(F)c(C(=O)Nc3ccc(F)c(C#N)c3)n(C)c2C)COC1	PCR	<0.001 µM